Columns and labels:
Experiment in all cases: cell-based or functional assay
[1] = biological target: S protein of SARS-CoV-2 alpha strain 1 (JPN/QK002/2020, Accession ID EPI_ISL_768526; on infectious virus) (SARS-CoV-2, UniProt P0DTC2 14-1273)
[2] = biological target: S protein of SARS-CoV-2 delta strain JPN/TKYTK1734/2021 (on infectious virus) (SARS-CoV-2, UniProt P0DTC2 14-1273)
[3] = biological target: S protein of SARS-CoV-2 alpha strain 2 (Accession ID EPI_ISL_804007; on infectious virus) (SARS-CoV-2, UniProt P0DTC2 14-1273)

Measured: 中和活性 IC50 (inhibition of infection of VeroE6/TMPRSS2 cells)

B1: EV053272 (antibody, V domains shown)
VH: QVQLVQSGAEVKKPGSSVKVSCKASGGTFSSYAISWVRQAPGQGLKWMGGIIPIFGTAKYAQKFQGRVTITADESTSTAYMELSSLRSEDTAVYYCASGRPVTIGVSSTTGVFDYWGQGTLVTVSS
VL: DIVMTQSPDSLAVSLGERATINCKSRQSVLYSSNNKNYLAWYQQKPGQPPKLLIYWASTRESGVPDRFSGSGSGTDFTLTISSLQAEDVAVYYCQQYYSSPITFGQGTRLEIKR
≤ 10 ng/mL: all assays above
